These results are taken from PMC5325082 (Molecular Pharmacology, 2017).

Holding throughout (test): radioligand binding
In experiment [1] the target is heteromeric α9χY190Tα10χ receptor (rat | mouse).
For experiment [2], the target named is heteromeric α9χα10χ receptor (wild-type chimeric subunits coexpressed) (rat | mouse).
For experiment [3], the target named is homomeric α10χW55T receptor (rat | mouse).
In experiment [4] the target is heteromeric α9χα10χY190T receptor (rat | mouse).
Experiment [5] deals with homomeric α10χ receptor (chimeric subunit: extracellular domain of rat α10 fused to the C-terminal d (rat | mouse)).

For “[^3H]-α-bungarotoxin (from UniProt P60615 22-95) (ligand)”, in experiment [1], the fold higher specific binding than homomeric α10χ was 4 fold. Moreover, the fold lower specific binding than wild-type α9χα10χ was 6 fold in experiment [1] and 4 fold in experiment [4]. Besides, in experiment [2], the fold higher specific binding than α9χ expressed alone stood at 6 fold. The specific binding in experiment [3] came out at 2.5 fmol/mg; in experiment [5], 1.4 fmol/mg.
